Assay results from publication PMC11242183.

test system: T1, FlaM (MBP fusion) (Plesiomonas shigelloides); assay: EMSA; settings: recombinant protein; residues 1-568; protein details: MBP (pMAL-c5X); probe letters rebuilt from the primers and the genome
T1 sequence (looked up): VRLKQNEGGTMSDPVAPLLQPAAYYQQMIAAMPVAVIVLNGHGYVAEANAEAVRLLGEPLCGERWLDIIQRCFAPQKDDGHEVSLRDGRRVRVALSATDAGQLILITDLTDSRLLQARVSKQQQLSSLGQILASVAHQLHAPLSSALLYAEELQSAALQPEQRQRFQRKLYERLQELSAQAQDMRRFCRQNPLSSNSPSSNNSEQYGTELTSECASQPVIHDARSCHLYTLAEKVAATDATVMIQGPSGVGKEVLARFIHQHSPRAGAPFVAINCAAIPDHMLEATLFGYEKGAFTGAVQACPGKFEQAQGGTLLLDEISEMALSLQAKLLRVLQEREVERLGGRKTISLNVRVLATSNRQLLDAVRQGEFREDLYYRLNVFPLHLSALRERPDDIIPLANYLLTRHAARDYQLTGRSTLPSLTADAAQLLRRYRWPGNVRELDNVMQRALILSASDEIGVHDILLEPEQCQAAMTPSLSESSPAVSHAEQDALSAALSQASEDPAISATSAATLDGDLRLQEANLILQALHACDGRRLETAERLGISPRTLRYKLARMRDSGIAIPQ

| Sequence | binding result |
| --- | --- |
| AGCACTTAGACGGATCATCGACCGGCTTACCACCAATCGCCAAGCTCATGTCGATCACCGAAATGGTCTGACCCCGGATATGCGCGATGCCTTTTACGATCGGATTAAGATTCGGTAGCATGGTCAGGCGCGGGCACTGCAGCACTTCGCGTACTTTAAACACGTTAATGCCGTAACGCTGTGACCCGTTGAGTTTAAATGTCAGCAGCTCCAGTCGGTTCTGTCCGACTAATTGTGTGCGCTGATTGACCGAATCCAGAATTCCCGCCATAACGTGCTACTCCCAGGGGTATTTAAAGTGTTTCTTATAACTCGTATACCCCTTAGGATATCAGAGGTATTTTGCATAACAGGAGACGTT (double strand) [flgA promoter] | binds |
| GCCGGAGTGTCAATGTCATTACGTGAACCTGAATCGTGATTGCCCGCGGCAGTGGCTGCTGCCGGTGATAACTGTACCGGTTGGCGATGTTATGAGTAATGCAATTAATGTTCCGTTTCATCCGGTTCAAGTTTTTACCGTAACGGGCGATAAGATAACAGAGAATGTGACTGGGACGCAGAACGTGAAGCACATGAAGACATTACTGCCGCTGGCGGCACTCTCCGGGCTGTTATTGACCGGCTGTGCCGGTAATCAACCCTCGGCAGATCAGCCGTATGTTATGGACAAGAATCAGGTTCAGGTGTTGCCACGCCACAGTCTGGACTTTTTTGTCGACGCGATGGCGCGTCAGTTGGT (double strand) [flgT promoter] | binds |
| GTAATGACATTGACACTCCGGCCGCGTGCCACCTGTCTGGCCACCGTGCTTATGCTGGCCAGCAGCTTATATACAAGCAACCTTTATGCCGCTTGGTATCAGACCACCGTCAGTATTCCGACGCAGGCGGGTAGCGAGAGCCAATTGCGCTCGCTCGCGCTCAGTGATGCCAGCGGTCAGCTGCTCGGTTATGCCGGGGTGTCGATGAACTATCAGCAACCGCTGGTCGCATCGCTACTCTCCGGCGATAAAGACGGCCAGACCATTCGTTACGCCGCCGGCAGCCCCGTACATGCAGCAACGGTGGTCAGTAGCGCTACCCAGAATGGCCGCTTTACCCTAACGTTACG (double strand) [flgO promoter] | binds |

target: FlaK (MBP fusion) (Plesiomonas shigelloides) (UniProt R8AUG0); assay: EMSA; settings: recombinant protein; protein details: MBP (pMAL-c5X); probe letters rebuilt from the primers and the genome

| Sequence | binding result |
| --- | --- |
| AACGGCGGTAAAGTGATTGGCTTTGATGACCTCGGCGTGCCCGAGGATGTGGCGTTTGCACCAGAAGCCCGTCACGACGATTTACCGTTTCAAGGCGTGGAAAATGACAACTTCCAGCAGGCGCTGGCCGATGCCATTCGCAGCCTGCCGGAGCGCGAAGCCCTCGTGTTGTCACTGTATTACGATGAAGAATTGAATTTAAAAGAAATTGGCGCCGTACTTGGCGTAAGCGAATCGCGGATCAGCCAGATTCTGAGTCAGACGATGCACCGTCTGCGGGCTAAGCTGCATGCTTGGTCAGCCGTATAAGAAGCG (double strand) [cheY promoter] | binds |
| GAAGTTTGAGACACGGAGCCGGCACTGCCAGCGGCGGGTGGCGCGGCGGGAAGAAGAACGGATTGTGGCATCTCAACCTTCCTTAGGATAATTAGTCATGCAGGGAACAGAGCGCGGCTGACCGGCCAAGCAAAATGCGGCGCAGATCAAATCGCGTCAATTACTCAACCATATGAGCAAAAAGCACGCCAACAAATTGACATCCTGCCAAGATGCTTGCGGCTAAGATACTTGCGTCAATCATATCCGTGCGAATCACACCAGTGCGCTTTAGCACGCTACGTCACTCAACGCAGTTATCTGCTGCATGCGGATTAACGCTGAGTTTGTAAACGGCGCAGCAA (double strand) [fliK promoter] | binds |
| GCAACGTCTTACCGGGTCTTCTCGACCGCAAAATTCTGTGTCTGTAATAAGTAAGGTCTGCGTAATGCAAATTCTCTGCCAGTTTTTGAGCAAAACCGCGTCAGTGTTAAGGCGGTGAGGGCGTGAGCTGGGGCTGTAAAGGACGGTAATTGGCGTGTCATTTTTTTGACTTAAGTCGCAAAGGTGACTATTGGACATATATTGACGCGCGGATTGATTGACAAGTGACAAAGAACAGTCAGAGCGCTTGGCCAGTGTTGCTCAATTAATGGCACGTTACTTGCTTTTGAACTGCGCGTAAAACCGTCCGCGTCATTGTGGCGGTTTCCTTGTTTATCAGAGCCTTGTTCATCAGAGGATTTCGGAGAGTCAGCGTCATGTATCACACAGC (double strand) [fliE promoter] | binds |
| GCAAGCTGGCATCTCTGTACTGTCTCAGGCAAACCAGACTCCATCCATGATCATGGGTCTGCTGCGTTAATTACGCCTGATTACGCATAGGTTTTGCCTTGTGATAACCGATGTTGGTTACGCAAAGGAAAACTCGCAATCCAAAAAGGGGCCGACTGGCCCCTTTTTACTGAGTTTTGTTGTTCTTCTTCGCGGATGTGATGGTGAAGGGGCAGAGCAAAGTGCAGTTCTTACGCGCCAATAGCATTCTGCTCTATTGGCTGTGAATTGACTGTTTAATGGCATTTTTCTTGCATCATTTTTTTTTGCATTTAAAGCGTAGCGCATAGCATTTTGCGTCCGAGAGATAAGTACGCTCGGTGGCCGCGCGGTAGACAGAGGATAG (double strand) [flhA promoter] | binds |

For some of these results: Protein sequences can lack the tags named with them. For at least one entry, the source does not settle the construct or the ends of the probe.
